Laboratory results published in article doi:10.1101/2024.06.06.597810 (bioRxiv, 2024).
Changes are numbered by the printed parent chain. In names and notes the source's numbering stands.

B1: S2P6 UCA VH Y32Q Fab (Fab, V domains shown)
VH: QVQLVQSGAEVKKPGASVKVSCKASGYTFTSQYMHWVRQAPGQGLEWMGIINPSGGSTSYAQKFQGRVTMTRDTSTSTVYMELSSLRSEDTAVYYCARGSPKGAFDYWGQGTLVTVSS
VL: not shown
B2: S2P6 UCA VH M48I Fab (Fab, V domains shown)
VH: B1 VH with Q32Y, M48I
VL: not shown
B3: S2P6 UCA VH S56H Fab (Fab, V domains shown)
VH: B1 VH with Q32Y, S57H
VL: not shown
B4: S2P6 UCA VH Y32Q/M48I double mutant Fab (Fab, V domains shown)
VH: B1 VH with M48I
VL: not shown
B5: S2P6 UCA (fully germline-reverted S2P6) in scFv format (scFv, V domains shown)
VH: B1 VH with Q32Y
VL: not shown

How the values were obtained:
[1] = molecular target: T1, Biotin-labeled BatCoV-BtkY72 stem helix peptide (Bat SARS-related coronavirus BtKY72 …, UniProt A0A3Q8AKM0, biotin (position not given)); conditions: both partners purified
T1 chain: ESFKQELDKYFKNH

[2] = molecular target: T2, SARS-CoV-2 spike stem helix peptide (residues 1146-1159), displayed on yeast (SARS-CoV-2); conditions: partners not purified
T2 chain: DSFKEELDKYFKNH

| Binder | binding result [1] | binding result [2] |
| --- | --- | --- |
| B1 | binds |  |
| B2 | binds |  |
| B3 | binds |  |
| B4 | binds |  |
| B5 |  | no binding |
